# Data as given in PubChem BioAssay AID1259414 (Drosophila RNAi Screening Center, 2018).
# Assay: 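Fly genes that alter Wolbachia amount inside host cells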 (primary screen)
# Cells: Drosophila JW18 cells infected with Wolbachia
# Knock-down reagent: long dsRNA against Drosophila genes, 0.25 µg dsRNA per well of a 384-well plate
# Time to read-out: 5 days
# Challenge: cells persistently infected with Wolbachia before knock-down; no added drug
# Measured: 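Imaged fluorescence in situ signal for Wolbachia 23S rRNA per DAPI-counted host cell, given as a robust z-score within each plate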
# Scale: Wolbachia per cell robust z: higher = more Wolbachia per host cell than the plate typical
# Active means: 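Hit when robust z is 1.5 or more, or -1.5 or less, in at least two of three replicates; excludes dsRNAs with several or no targets, genes not expressed in JW18 and well A1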
# The deposit covers about 24,000 reagents; this is a random part of those that have a named target and a result. In the full data, about 1,210 (5%) got an active call. 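Inactive calls also include excluded dsRNAs with several or no targets, genes unexpressed in JW18, and well A1, regardless of score.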 A number with no mark means an inactive call. Names joined by + are all predicted targets of the reagent. Reagent sequences are not shown.
gene,dsRNA,"Wolbachia per cell robust z, rep 1","Wolbachia per cell robust z, rep 2","Wolbachia per cell robust z, rep 3"
S-Lap7,DRSC06374,0.117,0.35,0.565
S-Lap7,DRSC27414,-4.69,-1.08,-1.36
mud,DRSC19019,-4.16,-0.425,-0.864
Fatp1,DRSC03054,0.172,0.138,-2.46
CG13054,DRSC09935,-0.591,1.26,0.53
CG13054,DRSC29594,0.00714,0.545,-6.72
spn-F,DRSC14475,2.15,0.195,1.21
spn-F,DRSC29328,0.259,0.0909,-0.141
CG3165,DRSC00573,0.823,-1.68,0.322
CG14721 + Blm,DRSC14943,-3.91,0.427,-0.617
Theg,DRSC16023,-0.0114,-0.0249,-0.663
CG5746,DRSC15868,-0.429,-4.05,-0.47
CG5746,DRSC25452,-10.5,-1.16,-0.921
Ass + CG31286,DRSC12493,-1,-1.4,-1.03
Cpr47Ec,DRSC07332,-1.41,-0.00262,-2.29
ATPsyngamma,DRSC14094,-0.456,1.36,0.763
Naa30A,DRSC23214,-1.53,0.391,0.589
Naa30A,DRSC30080,0.547,0.354,0.416
Arc2,DRSC06436,0.832,-0.132,0.15
Arc2,DRSC28707,-1.56 (active),-2.23,-0.315
CG18662,DRSC02691,0.00796,-8.23,-0.13
Ets65A,DRSC09968,-7.73,0.629,0.544
Ets65A,DRSC10738,-0.159,-0.369,0.641
Ets65A,DRSC11164,0.0732,-0.503,-0.223
ken,DRSC23196,0.218,0.376,0.00713
ken,DRSC40815,-0.723,-0.0769,-0.622
CG9698,DRSC16539,-3.13,-0.384,0.082
Gk2,DRSC08610,0.318,0.927,0.197
Cep89,DRSC07110,0.246,-0.257,0.588
Cep89,DRSC29382,1.11,-0.203,-0.201
CG6418,DRSC10633,0.103,0.778,0.855
CG6418,DRSC27621,1.11,-0.148,0.612
Vps36,DRSC09785,0.0724,0.255,1.33
CG14280,DRSC14761,-0.147,-2.08,-0.312
eEF1beta,DRSC07419,0.248,-2,1.23
eEF1beta,DRSC24367,-0.793,-3.59,1.83
CG10470,DRSC02061,0.857,-0.111,-1.75
Prat,DRSC16797,-0.145,-1.99,0.507
tmod,DRSC14314,-1.61,0.146,0.0209
tmod,DRSC15076,0.256,0.000281,-3.68
tmod,DRSC17062,-0.235,-0.607,-0.446
tmod,DRSC25448,0.57,0.824,-0.023
Acsx2,DRSC14308,-0.437,0.0381,0.384
p24-2 + Unc-115b + Unc-115a,DRSC16502,-1.27,-1.06,-0.392
MP1,DRSC12124,0.0987,-4.72,0.209
MP1,DRSC28577,-0.0567,-1.38,-4.42
Cam,DRSC07353,-0.175,0.384,-0.519
Cam,DRSC07354,-0.0141,-0.325,-0.0552
CG6785,DRSC02993,-1.67,0.892,-0.162
CG6785,DRSC25446,-0.101,-0.427,0.0218
Ugt37B1,DRSC03225,-1.74,-1.66,0.267
CG33199 + CG8229,DRSC05134,-3.47,-2.61,-1.36
CG33199 + CG8229,DRSC27680,-1.08,0.209,0.376
CG34277 + CG31542,DRSC25567,1.54,-0.102,1.52
CG34277 + CG31542,DRSC38642,-0.54,0.891,-2.28
CG12017,DRSC08225,-0.104,-0.388,-1.03
CG12017,DRSC28937,-1.31,-2.92,-0.775
CG13228,DRSC06348,-4.31,-0.414,-4.37
CG13228,DRSC27946,0.538,-1.02,0.515
Teh3,DRSC08537,0.678,-3.61,0.0411
Teh3,DRSC29472,0.405,0.272,-1.13
CG13044,DRSC09925,0.0367,-1.16,1.67
CG13044,DRSC28609,-0.00826,-0.917,-0.306
asRNA:CR30267 + CG42260,DRSC29385,0.281,0.716,0.961
CR10032,DRSC12499,0.773,0.214,-0.486
CR10032,DRSC28183,0.606,0.749,0.557
4E-T,DRSC17201,0.506,-1.08,-0.445
4E-T,DRSC17208,0.574,-0.88,-0.481

Limited to “Wolbachia per cell robust z, rep 3”, for 7 of the entries above:
S-Lap7 [DRSC27414]: -1.36
mud [DRSC19019]: -0.864
Fatp1 [DRSC03054]: -2.46
CG13054 [DRSC09935]: 0.53
CG13054 [DRSC29594]: -6.72
spn-F [DRSC14475]: 1.21
spn-F [DRSC29328]: -0.141
